Data from patent US20140213506A1, “THYMOSIN ALPHA PEPTIDE FOR PREVENTING, REDUCING THE SEVERITY OF, AND TREATING INFECTION” (priority 2011, published 2014).

The chains behind the UniProt entries cited, without tags or fusion partners. Where a name states a change or a piece, a line headed by the entry shows the natural chain unless it says otherwise.
UniProt P06454: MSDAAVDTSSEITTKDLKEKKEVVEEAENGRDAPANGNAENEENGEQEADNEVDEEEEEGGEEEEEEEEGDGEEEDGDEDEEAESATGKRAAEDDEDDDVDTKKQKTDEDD

Tested on: H1N1 influenza
Assay: Microneutralization (MN) test after H1N1 vaccination (Focetria) in hemodialysis patients
[1] = Day 21 MN test, Only Subjects negative at the baseline
[2] = Day 21 MN test, Only Subjects negative at the baseline (MN titer < 1:10)
[3] = Day 21 MN test, Only Subjects non-protected at the baseline
[4] = Day 21 MN test, Only Subjects received 2 doses of vaccine
[5] = Day 21 MN test, Only Subjects who received 1 vaccine dose
[6] = Day 21 MN test, Overall Population
[7] = Day 21 MN test, Overall Population, day x/day 0 geometric mean MN titer
[8] = Day 42 MN test, Only Subjects negative at the baseline
[9] = Day 42 MN test, Only Subjects non-protected at the baseline
[10] = Day 42 MN test, Only Subjects received 2 doses of vaccine
[11] = Day 42 MN test, Only Subjects who received 1 vaccine dose
[12] = Day 42 MN test, Overall Population
[13] = Day 84 MN test, Only Subjects negative at the baseline
[14] = Day 84 MN test, Only Subjects non-protected at the baseline
[15] = Day 84 MN test, Only Subjects received 2 doses of vaccine
[16] = Day 84 MN test, Only Subjects who received 1 vaccine dose
[17] = Day 84 MN test, Overall Population

| Substance | GMR [1] | Percent with MN ≧ 1:20 [2] [%] | GMR [3] | Percent with MN ≧ 1:20 [3] [%] | Percent with SC [3] [%] | GMR [4] | Percent with MN ≧ 1:20 [4] [%] | GMR [5] | Percent with MN ≧ 1:20 [5] [%] | Percent with SC [5] [%] | Percent with MN ≧ 1:20 [6] [%] | Percent with SC [6] [%] | GMR [7] | GMR [8] | Percent with MN ≧ 1:20 [8] [%] | GMR [9] | Percent with MN ≧ 1:20 [9] [%] | Percent with SC [9] [%] | GMR [10] | Percent with MN ≧ 1:20 [10] [%] | further results |
| --- | --- | --- | --- | --- | --- | --- | --- | --- | --- | --- | --- | --- | --- | --- | --- | --- | --- | --- | --- | --- | --- |
| V + T3.2: H1N1 vaccine plus two injections of thymalfasin (TA1), 3.2 mg seven days prior to vaccination and on the day of vaccination (Ac-SDAAVDTSSEITTKDLKEKKEVVEEAEN; UniProt P06454 2-29, looked up) | 2.08 | 33.3 | 2.00 | 40 | 28 | 1.00 | 0 | 2.1 | 50 | 26.9 | 46.4 | 25 | 1.95 | 1.68 | 22.2 | 1.74 | 32 | 20 | 1.00 | 0 | GMR [11]: 1.8; Percent with MN ≧ 1:20 [11]: 42.3%; Percent with SC [11]: 15.4%; GMR [12]: 1.72; Percent with MN ≧ 1:20 [12]: 39.3%; Percent with SC [12]: 17.6%; GMR [13]: 1.71; Percent with MN ≧ 1:20 [13]: 22.2%; GMR [14]: 1.62; Percent with MN ≧ 1:20 [14]: 28%; Percent with SC [14]: 20%; GMR [15]: 1.00; Percent with MN ≧ 1:20 [15]: 0%; GMR [16]: 1.68; Percent with MN ≧ 1:20 [16]: 38.5%; Percent with SC [16]: 19.2%; GMR [17]: 1.62; Percent with MN ≧ 1:20 [17]: 35.7%; Percent with SC [17]: 17.6% |
| V + T6.4: H1N1 vaccine plus two injections of thymalfasin (TA1), 6.4 mg seven days prior to vaccination and on the day of vaccination (Ac-SDAAVDTSSEITTKDLKEKKEVVEEAEN; UniProt P06454 2-29, looked up) | 2.88 | 47.4 | 2.65 | 55.6 | 40.7 | 1.00 | 50 | 2.61 | 63.3 | 36.7 | 62.5 | 31.6 | 2.46 | 2.54 | 52.6 | 2.42 | 59.3 | 44.4 | 1.00 | 50 | GMR [11]: 2.46; Percent with MN ≧ 1:20 [11]: 66.7%; Percent with SC [11]: 43.3%; GMR [12]: 2.33; Percent with MN ≧ 1:20 [12]: 65.6%; Percent with SC [12]: 40.6%; GMR [13]: 2.42; Percent with MN ≧ 1:20 [13]: 50%; GMR [14]: 2.40; Percent with MN ≧ 1:20 [14]: 60%; Percent with SC [14]: 44%; GMR [15]: 1.19; Percent with MN ≧ 1:20 [15]: 50%; GMR [16]: 2.42; Percent with MN ≧ 1:20 [16]: 67.9%; Percent with SC [16]: 42.9%; GMR [17]: 2.32; Percent with MN ≧ 1:20 [17]: 66.7%; Percent with SC [17]: 40% |

No end group written: not given here.
